Pooled drug test results. Numbers come from NIAID ChemDB, via PubChem.

Common to all: tests in culture; species: HIV-1; method: cytopathic effect / MTT; endpoint: EC50

An empty or dashed field is not shown.

smiles,strain or isolate,cell line,mutations,value
C=C1CN(S(=O)(=O)c2ccc(C)cc2)CCCN(Cc2ccccc2)CCCN(S(=O)(=O)c2ccc(C)cc2)C1,NL4-3,MT-4,,0.88–1.32 µM
O=C(/C=C/c1ccc(O)c(O)c1)c1ccccc1,,MT-4,,>1.7 µM
Cc1cn([C@H]2C=C[C@@H](CO)O2)c(=O)[nH]c1=O,NL4-3,MT-4,,0.32 µM
O=S1(=O)NC(c2ccccc2)c2cccn2-c2ccc(Cl)cc21,IIIB,MT-4,,≥200 µM
CCCCCCCCOC(=O)P(=O)(OCc1ccc(Cl)cc1)OCc1ccc(Cl)cc1,IIIB,MT-4,,>10 µM
CCCCCCCCCC(=O)O[C@@]12[C@H](OCOCc3ccccc3)[C@@H](C)[C@@]3(O)[C@@H](C=C(CO)C[C@]4(O)C(=O)C(C)=C[C@@H]34)[C@@H]1C2(C)C,IIIB,MT-4,,0.00027 µg/mL
CC(C)Nc1cccnc1N1CCN(C(=O)c2cc3cc(NS(C)(=O)=O)ccc3[nH]2)CC1,NL4-3,MT-4,,0.0136 µM
CCCCCCCCCC(=O)O[C@@]12[C@H](OCOC)[C@@H](C)[C@@]3(O)[C@@H](C=C(COC)C[C@]4(O)C(=O)C(C)=C[C@@H]34)[C@@H]1C2(C)C,IIIB,MT-4,,0.0469 µg/mL
O=C1/C(=C/c2ccc(O)c(O)c2)Cc2ccccc21,,MT-4,,>5.5 µM
Cc1ccnc2c1NC(=O)c1cccnc1N2C1CC1,NL4-3,MT-4,,0.028 µM
O=C1c2cccn2-c2ccc(Cl)cc2S(=O)(=O)N1C/C=C/c1ccccc1,IIIB,MT-4,,10 µM
O=C(/C=C/c1ccc(O)cc1)c1cccc(C(=O)/C=C/c2ccc(O)cc2)c1,,MT-4,,>35 µM
Nc1ccn([C@H]2CC[C@@H](CO)O2)c(=O)n1,NL4-3,MT-4,,0.95 µM
Nc1n[nH]c(=O)c2c1ncn2[C@H]1C[C@H](O)[C@@H](CO)O1,RF,CEM + CEM-SS,,89.2 µM
O=C1N(Cc2ccc(O)cc2)[C@H](Cc2ccccc2)[C@H](O)CN(Cc2ccccc2)N1Cc1ccc(O)cc1,,MT-4,,0.01 µM
CC(C)C[C@H](NC(=O)[C@@H](NC(=O)N(C)Cc1ccccn1)C(C)C)C(=O)C(F)(F)[C@H](CC(C)C)NC(=O)[C@@H](NC(=O)N(C)Cc1ccccn1)C(C)C,IIIB,MT-4,,2.3 µM
CCCCCCCCCC(=O)O[C@@]12[C@H](OC(C)=O)[C@@H](C)[C@@]3(O)[C@@H](C=C(CO)C[C@]4(O)C(=O)C(C)=C[C@@H]34)[C@@H]1C2(C)C,IIIB,MT-4 + mouse plasma + MT-4,,<0.1 µg/mL
CCCCCCCCOC(=O)P(=O)(O)OC[C@H]1O[C@@H](n2cc(C)c(=O)[nH]c2=O)C[C@@H]1N=[N+]=[N-],IIIB,MT-4,,0.06 µM
Cc1cn([C@H]2C[C@H](N=[N+]=[N-])[C@@H](CO)O2)c(=O)[nH]c1=O,IIIB,MT-4,,0.016 µM
O=C1/C(=C/c2ccc(O)c(O)c2)CCC/C1=C\c1ccc(O)c(O)c1,,MT-4,,>7.4 µM
CCN1C2C(S(=O)(=O)c3ccc(C)cc3)=NCN2c2ccccc2S1(=O)=O,IIIB,MT-4,,≥200 µM
CC(C)[C@H](NS(=O)(=O)CCc1ccccn1)C(=O)N[C@@H](Cc1ccccc1)C(=O)C(F)(F)[C@H](Cc1ccccc1)NC(=O)[C@@H](NS(=O)(=O)CCc1ccccn1)C(C)C,IIIB,MT-4,,0.56 µM
CCCCCCCCOC(=O)P(=O)(OC[C@H]1O[C@@H](n2cc(C)c(=O)[nH]c2=O)C[C@@H]1N=[N+]=[N-])OC[C@H]1O[C@@H](n2cc(C)c(=O)[nH]c2=O)C[C@@H]1N=[N+]=[N-],IIIB,MT-4,,0.013 µM
O=C(/C=C(O)/C=C/c1ccccc1)/C=C/c1ccccc1,,MT-4,,>41 µM
COC(=O)[C@H](CCSC)NC(=O)COc1ccc2ccccc2c1,IIIB,MT-4,,>100 µg/mL
CC(C)Cc1c(C(C)C)s/c(=N\S(=O)(=O)c2cccc([N+](=O)[O-])c2)n1C,IIIB,MT-4,,>21.4 µM
CC(C)=CCN1Cc2cc(Cl)cc3[nH]c(=S)n(c23)C[C@@H]1C,RF,CEM + CEM-SS,,0.043 µM
CC(C)N1C(=O)c2cccn2-c2ccc(Cl)cc2S1(=O)=O,IIIB,MT-4,,3.8 µM
O=C(N[C@H](C(=O)N[C@@H](Cc1ccc(OCc2ccccc2)cc1)C(=O)C(F)(F)C(=O)NCc1ccccc1)C1CCCC1)OCc1ccccc1,RF,MT-4,,3 µM
O=C1c2ccccc2C(=O)N1CCOC(=S)N(C(=O)c1cccnc1Cl)c1ccc(Cl)cc1,A17,MT-4,RT-K103N Y181C,>100 µM
C#CC1(CO)CCC(n2ccc(N)nc2=O)O1,LAI,MT-4,,>10 µM
Cc1c(O)cccc1C(=O)N[C@@H](CSc1ccccc1)[C@H](O)CN1C[C@H]2CCCC[C@H]2C[C@H]1C(=O)NC(C)(C)CO,RF,CEM + CEM-SS,,0.0342 µM
Cc1cs/c(=N\S(=O)(=O)c2cccc([N+](=O)[O-])c2)n1C,IIIB,MT-4,,>25 µM
CC(C)(C)C(=O)SCCOC(=O)P(=O)(OCCSC(=O)C(C)(C)C)OCCSC(=O)C(C)(C)C,IIIB,MT-4,,>10 µM
C=Cc1s/c(=N\S(=O)(=O)c2cccc([N+](=O)[O-])c2)n(C)c1C,IIIB,MT-4,,0.097 µM
NNC(=O)[C@H](CO)NC(=O)COc1ccc2ccccc2c1,IIIB,MT-4,,>100 µg/mL
Cc1cccc(COC(=O)N[C@H](C(=O)N[C@@H](Cc2ccccc2)C(=O)C(F)(F)[C@H](Cc2ccccc2)NC(=O)[C@@H](NC(=O)OCc2cccc(C)n2)C(C)C)C(C)C)n1,IIIB,MT-4,,0.007 µM
Cc1cn([C@H]2C[C@H](N=[N+]=[N-])[C@@H](CO)O2)c(=O)[nH]c1=O,IIIB,MT-4,,0.0015 µM
O=C(/C=C/c1ccc(O)c(O)c1)c1cccc(C(=O)/C=C/c2ccc(O)c(O)c2)c1,,MT-4,,>5 µM
COC(=O)[C@H](CC(C)C)NC(=O)COc1ccc2ccccc2c1,IIIB,MT-4,,>100 µg/mL
CC1=C[C@H]2[C@@]3(O)[C@H](C)[C@@H](O)[C@]4(O)[C@H]([C@@H]3C=C(CO)C[C@@]2(O)C1=O)C4(C)C,IIIB,MT-4,,>10 µg/mL

The last 5 rows once more:

smiles | strain or isolate | cell line | mutations | value
Cc1cccc(COC(=O)N[C@H](C(=O)N[C@@H](Cc2ccccc2)C(=O)C(F)(F)[C@H](Cc2ccccc2)NC(=O)[C@@H](NC(=O)OCc2cccc(C)n2)C(C)C)C(C)C)n1 | IIIB | MT-4 |  | 0.007 µM
Cc1cn([C@H]2C[C@H](N=[N+]=[N-])[C@@H](CO)O2)c(=O)[nH]c1=O | IIIB | MT-4 |  | 0.0015 µM
O=C(/C=C/c1ccc(O)c(O)c1)c1cccc(C(=O)/C=C/c2ccc(O)c(O)c2)c1 |  | MT-4 |  | >5 µM
COC(=O)[C@H](CC(C)C)NC(=O)COc1ccc2ccccc2c1 | IIIB | MT-4 |  | >100 µg/mL
CC1=C[C@H]2[C@@]3(O)[C@H](C)[C@@H](O)[C@]4(O)[C@H]([C@@H]3C=C(CO)C[C@@]2(O)C1=O)C4(C)C | IIIB | MT-4 |  | >10 µg/mL

a–b is a range or a potency band. ECn: concentration that inhibits the pathogen or its effect by n%. Neighbouring rows are from separate reports.